Reference: paper PMC11907795
For at least one entry, the source does not settle the construct or the ends of the probe.

Assays:
[1] = tested on: PthA5-His (Xanthomonas citri subsp. citri strain Xcc086); test: EMSA; conditions: poly dI-dC, unlabeled competitor 1x-800x; EMSA Binding Buffer (composition, salt and pH not stated) with poly dI-dC, 25 °C 25 min; 10% native PAGE at 4 °C, 100 V, 1.5 h; recombinant protein; protein details: His (N-terminal, pET28a); label: Cy5
[2] = tested on: PthA6-His (Xanthomonas citri subsp. citri strain Xcc003); test: EMSA; conditions: poly dI-dC, unlabeled competitor 1x-800x; EMSA Binding Buffer (composition, salt and pH not stated) with poly dI-dC, 25 °C 25 min; 10% native PAGE at 4 °C, 100 V, 1.5 h; recombinant protein; protein details: His (N-terminal, pET28a); label: Cy5

TATATACATACACACACACACACACACACATAT (double strand) [ProCsGRAS9]
binding result [1]: binds | binding result [2]: binds
